Anti-infective test results gathered from many reports (values: NIAID ChemDB through PubChem).

Shared fields: host cell toxicity; cells: HeLa; measure: CC50

Lines come from different laboratories, so protocols vary. a–b is a range or a potency band. CCn: concentration that lowers growth or viability of the cells by n%.

N=C(N)c1ccc2[nH]c(C(=N)N)cc2c1 ; method: trypan blue ; result: >200 µg/mL
CS/C(Nc1cccc(C#N)c1)=C(/C#N)S(=O)(=O)c1ccccc1 ; method: MTT / absorbance ; result: 2.31 µM
C#C[C@]1(CO)O[C@@H](n2cnc3c(=O)[nH]cnc32)C[C@@H]1O ; method: MTT ; result: >200 µM
CS/C(Nc1cccc(C)c1)=C(/C#N)S(=O)(=O)c1ccccc1 ; method: MTT / absorbance ; result: >100 µM
CCC[C@@H]1C[C@@H](C(=O)N[C@@H]([C@H]2O[C@H](SC)[C@H](O)[C@@H](O)[C@H]2O)[C@H](C)Cl)N(C)C1 ; result: >100 µg/mL
C#C[C@]1(CO)O[C@@H](n2cnc3c(N)ncnc32)C[C@@H]1O ; method: MTT ; result: >200 µM
O=c1[nH]c(=O)n([C@@H]2O[C@H](CO)C[C@H]2O)cc1F ; method: trypan blue ; result: >500 µg/mL
C#C[C@]1(CO)O[C@@H](n2cnc3c(=O)[nH]c(N)nc32)C[C@@H]1O ; method: MTT ; result: 52 µM
N#C/C(=C(\Nc1cccc(C(F)(F)F)c1)Sc1ccccc1)S(=O)(=O)c1ccccc1 ; method: MTT / absorbance ; result: 1 µM
O=C(CCCCCNc1ccc([N+](=O)[O-])c2nonc12)ON1C(=O)CCC1=O ; method: fluorescence ; result: >50 µM
CNCC1=CC[C@@H](N)[C@@H](O[C@H]2[C@H](O)[C@@H](O[C@H]3OC[C@](C)(O)[C@H](NC)[C@H]3O)[C@H](N)C[C@@H]2N)O1 ; result: >200 µg/mL
CCc1ccc(-c2nc3c(=O)n(C)c(=O)nc-3n(CC)n2)cc1 ; method: fluorescence ; result: 3.2 µM
Cc1cc(O)c2c(c1O)C(=O)c1cccc(O)c1C2=O ; result: 0.5 µg/mL
Fc1ccc(-c2nc(SCC3CC3)n[nH]2)cc1 ; method: MTT ; result: 6.99 µg/mL
CCC(=O)O[C@@H]1CC(=O)O[C@H](C)C/C=C/C=C/[C@H](O[C@H]2CC[C@H](N(C)C)[C@H](C)O2)[C@H](C)C[C@H](CC=O)[C@H](O[C@@H]2O[C@H](C)[C@@H](O[C@H]3C[C@@](C)(O)[C@@H](O)[C@H](C)O3)[C@H](N(C)C)[C@H]2O)[C@H]1OC ; result: >100 µg/mL
Nc1ccc(-c2nc(=S)[nH][nH]2)cc1 ; method: MTT ; result: >100 µg/mL
COc1ccc2c(c1OC)C(=O)O[C@@H]2[C@H]1c2cc3c(cc2CCN1C)OCO3 ; result: 10–20 µg/mL
Nc1nc2c(ncn2COC2COP(=O)(O)OC2)c(=O)[nH]1 ; method: trypan blue ; result: >125 µg/mL
CN(C)[C@@H]1C(=O)C(C(N)=O)=C(O)[C@@]2(O)C(=O)C3=C(O)c4c(O)ccc(Cl)c4[C@@](C)(O)C3C[C@@H]12 ; result: 100 µM
CC(C)NS(=O)(=O)c1nc(-c2ccc(Cl)cc2)n[nH]1 ; method: MTT ; result: >100 µg/mL
O=C1C=CN([C@@H]2O[C@H](CO)[C@@H](O)[C@H]2O)C(=O)C1 ; method: trypan blue ; result: >500 µg/mL
C/C=C\C(C)=C\[C@H](C)C(=O)C[C@H](O)CC1CC(=O)NC(=O)C1 ; result: 195 µM
C[C@@]1(O)[C@@H](CO)O[C@@H](n2ccc(=O)[nH]c2=O)[C@@H]1O ; method: trypan blue ; result: >500 µg/mL
O=[N+]([O-])c1ccc(-c2nc(SCC3CC3)n[nH]2)cc1 ; method: MTT ; result: 8.5 µg/mL